Reference: article PMC4791841, “Nanomolar Inhibitors of Trypanosoma brucei RNA Triphosphatase” (mBio, 2016)
pIC50: −log10 of the molar value.

The chains behind the UniProt entries cited, without tags or fusion partners. Residues count along the entry.
UniProt Q582T2, 1-253: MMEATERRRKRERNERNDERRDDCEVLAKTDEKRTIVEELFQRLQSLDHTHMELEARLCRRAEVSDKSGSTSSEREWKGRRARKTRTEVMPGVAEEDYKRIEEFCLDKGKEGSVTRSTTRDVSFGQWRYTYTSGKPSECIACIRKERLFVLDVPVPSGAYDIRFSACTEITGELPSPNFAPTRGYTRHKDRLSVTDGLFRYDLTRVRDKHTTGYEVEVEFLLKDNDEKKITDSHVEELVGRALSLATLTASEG

Molecular target: TbCet1 (Trypanosoma brucei brucei, UniProt Q582T2)
Conditions: read-out: IC50 TbCet1 by 32P assay; 2.2 nM TbCet1, 0.2 mM ATP, 2 mM Mn2+, 10 min 37°C

O=C(/C=C/c1ccc(O)cc1)O[C@@H]1C[C@](O)(C(=O)O)C[C@@H](O)[C@H]1O
pIC50: < 3.30

O=C(/C=C/c1ccccc1)O[C@@H]1C[C@@](O)(C(=O)O)C[C@@H](O)[C@@H]1O
pIC50: 3.68
